Results: patent publication US20220135655A1
pKd: −log10 of the molar value.

Molecular target: H5VN04 (influenza A virus H5VN04 (H5N1))
Experiment: SPR
Settings: scFv

Row | Substance | pKd
1 | CR6261 F54A | 6.54
2 | CR6261 Y98A | 5.80
3 | F10 Y98A | 6.46
